How the values were obtained:
PBP2 [1] = molecular target: T1, PBP2 (Neisseria gonorrhoeae, UniProt P08149, H541N); assay: PBP-binding assay (Bocillin FL) in isolated membrane preparations; parameters: species or system Neisseria gonorrhoeae ATCC 19424
T1 construct: endogenous in cells; host or cells: N. gonorrhoeae ATCC 19424, isolated membrane preparation

PBP2 [2] = molecular target: T2, PBP2 (Neisseria gonorrhoeae, UniProt P08149, A510V/A516G/A574V/F504L/H541N/I556V/I566V/K555Q/P552V); assay: biochemical; type: binding, Neisseria gonorrhoeae ATCC 49226; settings: IC50 PBP2, strain ATCC 49226; membrane preparation, 30 min drug then Bocillin FL
T2 construct: endogenous in cells; host or cells: N. gonorrhoeae ATCC 49226, isolated membrane preparation

Row | SMILES | IC50 (PBP2 [1]; IC50 PBP2 (Table S1), strain ATCC 19424) [nM] | IC50 (PBP2 [2]) [nM] | IC50 (PBP2 [1]; IC50 PBP2, strain ATCC 19424, membrane preparation, 30 min drug then Bocillin FL) [nM]
1 | C[C@@H](O)[C@H]1C(=O)N2C(C(=O)O)=C(S[C@@H]3CN[C@H](C(=O)Nc4cccc(C(=O)O)c4)C3)[C@H](C)[C@H]12 [ETP, ertapenem] | 63.1 | – | –
2 | C[C@@H](O)[C@H]1C(=O)N2C(C(=O)O)=C(S[C@@H]3CN[C@H](C(=O)N(C)C)C3)[C@H](C)[C@H]12 [MEM, meropenem] | – | 52.2 | 78.2

Reference: paper PMC10269775, “Penicillin-Binding Protein Occupancy Dataset for 18 β-Lactams and 4 β-Lactamase Inhibitors in Neisseria gonorrhoeae” (Microbiology Spectrum, 2023)
